Consider one molecule from patent US6323185, “Anti-viral guanosine-rich oligonucleotides and method of treating HIV” (The United States of America as represented by the …).

This data set concerns the target CD4 (UniProt P01730 P01730:26-396). The data set can be described thus: competition; ID50, oligo with immobilized CD4. The conditions noted are these: tags: immobilized, gp120 capture ELISA kit. (In general: An ELISA detects its analyte on a solid surface through an enzyme-linked reagent.)

The IC50 is the concentration needed to halve the response being measured. As to GGGTGGGTGGGTGGGTGG (ssDNA, all PS) [1174], the half-inhibitory concentration (IC50) was determined as 450 nM.
